Patent US20230374563A1, “Methods for Antimicrobial Susceptibility Testing” (MicrobeDX, Inc., priority 2017, published 2023)

What was measured:
[1] = test system: microorganisms in a urine specimen; test: Accuracy of RiboResponse-based AST on urine specimens compared to broth microdilution; format: cell-based; conditions: RiboResponse-based AST vs broth microdilution
Gram negative pathogens = test: RiboResponse AST, predetermined concentrations (working panel 2, concentration limits); format: cell-based; conditions: for Upper Concentration Limit: highest concentration tested that provided acceptable AST assay results; for Lower Concentration Limit: lowest concentration tested that provided acceptable AST assay results

Compound	Accuracy of Present Invention [1] [%]	Upper Concentration Limit (Gram negative pathogens) [µg/mL]	Lower Concentration Limit (Gram negative pathogens) [µg/mL]
Cc1nnc(SCC2=C(C(=O)O)N3C(=O)[C@@H](NC(=O)Cn4cnnn4)[C@H]3SC2)s1 [Cefazolin]	97.6		
C[C@@H](O)[C@H]1C(=O)N2C(C(=O)O)=C(S[C@@H]3CN[C@H](C(=O)N(C)C)C3)[C@H](C)[C@H]12 [Meropenem]		8	1
NCC[C@H](O)C(=O)N[C@@H]1C[C@H](N)[C@@H](O[C@H]2O[C@H](CN)[C@@H](O)[C@H](O)[C@H]2O)[C@H](O)[C@H]1O[C@H]1O[C@H](CO)[C@@H](O)[C@H](N)[C@H]1O [Amikacin]	100.0	64	2
O=C(O)c1cn(C2CC2)c2cc(N3CCNCC3)c(F)cc2c1=O [Ciprofloxacin]	97.6	8	1
Gentamicin	100.0	16	2
CO/N=C(\C(=O)N[C@@H]1C(=O)N2C(C(=O)O)=C(CSc3nc(=O)c(=O)[nH]n3C)CS[C@H]12)c1csc(N)n1 [Ceftriaxone]	97.6	128	1
CC1(C)S[C@@H]2[C@H](NC(=O)[C@H](N)c3ccccc3)C(=O)N2[C@H]1C(=O)O [Ampicillin]	95.1	2048	8
C[C@@H](O)[C@H]1C(=O)N2C(C(=O)O)=C(S[C@@H]3CN[C@H](C(=O)Nc4cccc(C(=O)O)c4)C3)[C@H](C)[C@H]12 [Ertapenem]		8	0.5
C[C@@H]1O[C@@H]1P(=O)(O)O [Fosfomycin]		512	4
